In-gel DMS probing of monomeric and dimeric HIV-1 RNA

The measurements come from Ye et al. 2022 (doi:10.1038/s41594-022-00746-2).

Sequence of the HIV-1 NL4-3 5' RNA, positions 1 to 437, as numbered in the source:
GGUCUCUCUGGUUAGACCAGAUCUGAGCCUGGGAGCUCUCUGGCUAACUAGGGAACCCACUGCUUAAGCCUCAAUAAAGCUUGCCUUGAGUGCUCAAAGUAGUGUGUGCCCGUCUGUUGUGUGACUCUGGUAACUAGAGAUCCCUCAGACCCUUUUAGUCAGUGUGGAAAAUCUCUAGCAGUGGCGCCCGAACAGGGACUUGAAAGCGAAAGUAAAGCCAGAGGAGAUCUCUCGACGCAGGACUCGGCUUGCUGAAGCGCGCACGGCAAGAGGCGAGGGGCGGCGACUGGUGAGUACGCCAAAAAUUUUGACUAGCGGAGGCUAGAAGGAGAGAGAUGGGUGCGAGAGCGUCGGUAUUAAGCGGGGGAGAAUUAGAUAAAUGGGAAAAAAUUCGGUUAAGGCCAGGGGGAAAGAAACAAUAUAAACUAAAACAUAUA

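Randomly mutated transcripts starting with one, two or three G (1G, 2G, 3G), capped or uncapped, were folded for 30 min at 37 °C. Monomer and dimer bands were cut from native gels after folding in high salt (300 mM KCl, 5 mM MgCl2) or low salt (40 mM KCl, 0.1 mM MgCl2). Each band was probed in the gel with DMS (170 mM, 15 min, 37 °C), with ethanol as control, and sequenced.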

Scale: normalised reactivity, A and C only; low values point to paired or protected bases, higher values to unpaired ones. One numbering serves 1G, 2G and 3G. A position is written with its base.

position,1G uncapped low-salt dimer,1G uncapped low-salt monomer,2G capped high-salt dimer,2G capped high-salt monomer
A19,0.03,0.05,0.03,0.03
A21,0.57,0.60,0.51,0.57
C23,0.98,1.18,1.18,1.32
A26,0.35,0.21,0.10,0.09
C28,0.10,0.05,0.03,0.03
C29,0.17,0.14,0.08,0.09
A34,0.86,1.00,1.03,1.13
C36,0.11,0.06,0.03,0.03
C38,0.03,0.05,0.03,0.03
C40,0.03,0.05,0.03,0.03
C44,0.03,0.05,0.03,0.03
A46,0.15,0.09,0.03,0.03
A47,0.32,0.24,0.13,0.11
C48,0.21,0.14,0.03,0.03
A50,0.37,0.26,0.13,0.11
A54,0.25,0.22,0.16,0.14
A55,0.39,0.52,0.25,0.25
C56,0.16,0.18,0.03,0.03
C57,0.59,0.61,0.03,0.03
C58,0.07,0.17,0.54,0.96
A59,0.28,0.45,0.34,0.49
C60,0.09,0.24,0.19,0.36
C63,0.03,0.12,0.11,0.21
A66,1.13,0.88,1.09,1.05
A67,0.55,0.64,0.57,0.75
C69,0.03,0.05,0.03,0.03
C70,0.03,0.05,0.03,0.03
C72,0.13,0.11,0.09,0.08
A73,0.03,0.05,0.03,0.03
A74,0.62,0.74,0.58,0.77
A76,0.27,0.30,0.24,0.25
A77,0.75,0.70,0.72,0.83
A78,0.64,0.74,0.62,0.74
C80,0.42,0.34,0.38,0.40
C84,0.74,0.52,0.66,0.53

A selection of 3 entries from above:

| position | 1G uncapped low-salt dimer | 1G uncapped low-salt monomer | 2G capped high-salt dimer | 2G capped high-salt monomer |
|---|---|---|---|---|
| C28 | 0.10 | 0.05 | 0.03 | 0.03 |
| C36 | 0.11 | 0.06 | 0.03 | 0.03 |
| C48 | 0.21 | 0.14 | 0.03 | 0.03 |